Earlier results, collected in article PMC9986244, “Connection between MHC class II binding and aggregation propensity: The antigenic peptide 10 of Paracoccidioides brasiliensis as a benchmark study” (Computational and Structural Biotechnology Journal, 2023).

Target: DRB1*01:01 allele (Homo sapiens, UniProt P01903+P01911, A100R/D57E/F55L/F60I/F76Y/I96L/L162R/M171V/P40L/Q125E/R42F/V115G/Y59C)
Details: cited from earlier work

In the case of PKYVKQNTLKLAT [Influenza peptide], the “Binding against the DRB1*01:01 allele” value is listed as “good binder”.
